Reference: patent US20070033061A1 (priority 2005, published 2007)
≈ marks a conversion by molar mass, not a printed value.

Legend:
[1] = tested on: E. coli lexA(S119A) strain
B. anthracis Sterne = B. anthracis Sterne wild type

O=C(O)c1cn(C2CC2)c2cc(N3CCNCC3)c(F)cc2c1=O [ciprofloxacin]
reduction in the frequency of developing resistance to ciprofloxacin ([1]; LexA(Ind-) strain, amount depending on the antibiotic concentration): more than two orders of magnitude | reduction of the frequency with which bacteria evolved resistance to ciprofloxacin ([1]; lexA(S119A) strain, 35 ng/mL ciprofloxacin, data not shown): approximately 100 fold | MIC wt (B. anthracis Sterne): 0.05 µg/mL (≈ 0.151 µM)
